{
  "source": "patent US20190167593A1",
  "about": "“CYCLOHEXENE DERIVATIVE OR PHARMACEUTICALLY ACCEPTABLE SALT THEREOF, AND APPLICATION OF SAME” (priority 2016, published 2019)",
  "target": "H274Y drug-resistant mutant NA (Influenza A virus, UniProt P03468, H260Y)",
  "conditions": "read-out: DRUG-RESISTANT MUTANT IC50",
  "data": [
    {"substance": "Peramivir", "values": [
      {"measurement": "IC50", "result": 0.0269, "unit": "µM"}
    ]}
  ]
}
